Assay results as given in PubChem BioAssay AID651610 (Broad Institute, 2012).
The entries are a selection whose mix differs from that of the whole data set. Some structures show a salt or complex split into parts, the way the source records it. Calls of active or inactive are those of the source.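 Rule for the calls: active = mean replicate inhibition score of at least 50 and every replicate individually at or above 50; inconclusive = only one of the two criteria met; inactive = mean below 50 and not all replicates reaching 50.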

Assay: blockers of JRFL envelope-mediated fusion – HeLa-JRFL effector, CEM21 target cells, luciferase, primary screen (AID 651610);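 note: 0% = plate neutral controls and 100% = maraviroc near 300 nM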
Conditions: HeLa-JRFL Env/CEM21 cell fusion, at 12.3 µM, active compounds read high

SMILES	inhibition
CCc1ccc(OP(C)(=O)Nc2cccnc2)cc1 (stereo unspecified)	inactive: -0.375%
O=[N+]([O-])c1cc([N+](=O)[O-])c(CCNc2ccccc2)c([N+](=O)[O-])c1	inactive: 6.91%
CCc1nc2c(n1)c1c(non1O)c1c2no[n+]1[O-]	inactive: -54.2%
Cc1ccc(NP(=O)(Oc2ccccc2)Oc2ccccc2)nc1	inactive: 5.74%
O=C(OCCCN1CCCC1)C(O)(c1ccccc1)C1CCCCC1 (stereo unspecified)	inactive: 19.2%
O=[N+]([O-])c1cccc2n[nH]nc12	inactive: -47.3%
COc1ccccc1OP(C)(=O)Nc1c(C)n(C)n(-c2ccccc2)c1=O (stereo unspecified)	inactive: 1.04%
COc1ccc(C2=NCC(CBr)S2)cc1 (stereo unspecified)	inactive: 6.79%
COc1ccc(OP(C)(=O)Nc2ccc(Br)cc2)cc1 (stereo unspecified)	inactive: -50.9%
CCN(CC)CC(O)COC(=O)C(O)(c1ccccc1)C1CCCCC1 (stereo unspecified)	inactive: -117%
c1cc(-c2nn[nH]n2)ccc1-c1nn[nH]n1	inactive: 1.45%
CC(C)=N/N=C(\N)N[N+](=O)[O-]	inactive: 10.5%
CN(C)C(=O)c1c([N+](=O)[O-])cc([N+](=O)[O-])cc1[N+](=O)[O-]	inactive: 30.3%
CCN(/C(=N/P(=O)(N1CCOCC1)N1CCOCC1)N1CCOCC1)c1ccc(OC)cc1	inactive: -6.45%
C[N+]1=C2C=CC=CC=C2SC12C([N+](=O)[O-])=CC([N+](=O)[O-])=C[C-]2[N+](=O)[O-] (stereo unspecified)	inactive: -55%
COc1ccccc1OP(C)(=O)Nc1ccccc1Br (stereo unspecified)	inactive: 17.2%
Nc1ccc([As](=O)(O)c2ccc(N)cc2)cc1	inactive: 20.2%
CC(C)(C)c1ccc(OP(C)(=O)O)cc1	inactive: -1.86%
O=C(Nc1cc([As](=O)(O)O)ccc1O)c1ccccc1	inactive: -6.28%
Nc1ccc2c(ccc3cccnc32)n1.O=[N+]([O-])c1cc([N+](=O)[O-])c(O)c([N+](=O)[O-])c1	inactive: -228%
O=C(O)CNc1ccc([As](=O)(O)O)cc1	inactive: -10.9%
COC(=O)C1(C)COP(=O)(Nc2ccccc2)OC1 (stereo unspecified)	inactive: -3.31%
O=[N+]([O-])c1cccc(NC2=NCC(CBr)S2)c1 (stereo unspecified)	inactive: -1.77%
O=[N+]([O-])c1ncn(CCn2ncnc2[N+](=O)[O-])n1	inactive: -0.806%

SMILES	inhibition
CC(C)(C)C(=O)NC(Sc1ccncn1)C(Cl)(Cl)Cl (stereo unspecified)	inactive: 2.23%
COc1ccc(OP(C)(=O)Nc2ccccc2Br)cc1 (stereo unspecified)	inactive: -23%
CN(C(=O)Cc1ccc(Cl)c(Cl)c1)[C@H]1CCCC[C@@H]1N1CCCC1	inactive: -9.81%
Cc1ccc(NP(=O)(Oc2ccccc2F)Oc2ccccc2F)nc1	inactive: -7.35%
O=P(Nc1nc2ccc(Cl)cc2s1)(c1ccccc1)c1ccccc1	inactive: -17.4%
CN(C)P(=O)(N(C)C)n1c(Nc2ccccc2)nnc1-c1ccccc1	inactive: 10.3%
Cc1cc(C)cc(OP(C)(=O)Nc2cccc(C(F)(F)F)c2)c1 (stereo unspecified)	inactive: -10%
O=C1C(O)=C([N+](=O)[O-])C(=O)C(O)=C1[N+](=O)[O-]	inactive: 1.35%
CCCC1OP(N)(=O)OCC1CC (stereo unspecified)	inactive: 24.6%
CC(=O)Nc1ccc([As](=O)(O)O)cc1	inactive: 1.22%
O=C(O)c1ccccc1[As](=O)(O)O	inactive: 11.9%
CP(=O)(Nc1ccc(Cl)cc1Cl)Oc1ccccc1 (stereo unspecified)	inactive: 7.75%
CCCCCCCCCCCCCCCC1C[N+](C)(C)CCOP(C)(=O)O1 (stereo unspecified)	inactive: 9.86%
CP(=O)(OCCOc1ccccc1)OCCOc1ccccc1	inactive: 20.5%
Nc1cccc2ccc([As](=O)(O)O)cc12	inactive: -9.04%
CCN(N=Nc1nonc1N)c1nonc1N	inactive: -46.8%
CN(C)CCOC(=O)C(O)(c1ccccc1)C1CCCC1 (stereo unspecified)	inactive: -30.5%
Clc1ccc(Cl)c(NC2=NCC(CBr)S2)c1 (stereo unspecified)	inactive: 4.69%
Cc1ccc(OP(=O)(Nc2nccs2)Oc2ccc(C)cc2)cc1	inactive: 10.3%
COc1ccccc1OP(=O)(Nc1ccc(C)cn1)Oc1ccccc1OC	inactive: 4.29%
COc1ccc(OP(C)(=O)Nc2ccccn2)cc1 (stereo unspecified)	inactive: -18.1%
Cc1ccc(N/C(=N/P(=O)(N2CCOCC2)N2CCOCC2)N2CCOCC2)cc1	inactive: 8.89%
CN(C(=O)Cc1ccc(Cl)c(Cl)c1)[C@H]1CCCC[C@H]1N1CCCC1	inactive: 7.37%
COc1ccccc1OP(C)(=O)Nc1ccc(Br)cc1 (stereo unspecified)	inactive: -21.6%

SMILES	inhibition
NC(=O)c1cc([N+](=O)[O-])cc([N+](=O)[O-])c1N	inactive: 3.45%
COc1ccccc1OP(C)(=O)Nc1ccc(C)cc1C (stereo unspecified)	inactive: -23.2%
O=C(NC(Sc1ccncn1)C(Cl)(Cl)Cl)c1ccccc1 (stereo unspecified)	inactive: 12.6%
Nc1cc(N)c2nonc2c1[N+](=O)[O-]	inactive: 5.53%
Cc1c(NP(C)(=O)Oc2ccc(C(C)C)cc2)c(=O)n(-c2ccccc2)n1C (stereo unspecified)	inactive: -69.8%
O=[N+]([O-])c1cc([N+](=O)[O-])c(Nc2ccccn2)c([N+](=O)[O-])c1	inactive: -0.15%
CC(C)CC(=O)NC(Sc1ccc(Cl)cc1)C(Cl)(Cl)Cl (stereo unspecified)	inactive: 7.45%
CC(C)c1ccc(OP(C)(=O)Nc2ccc(SC(F)(F)F)cc2)cc1 (stereo unspecified)	inactive: 1.55%
CC(C)(C)C(=O)NC(Sc1ccccc1)C(Cl)(Cl)Cl (stereo unspecified)	inactive: 16.9%
CCc1cc(O)c([N+](=O)[O-])c(C)c1[N+](=O)[O-]	inactive: -11.4%
CCOc1ccc(C2=NCC(CBr)S2)cc1 (stereo unspecified)	inactive: 6.87%
O=[N+]([O-])c1cc([N+](=O)[O-])c(Nc2ccc(Cl)cc2)c([N+](=O)[O-])c1	inactive: -39.9%
O=P1(Nc2nc3ccc(Cl)cc3s2)COc2ccccc2O1 (stereo unspecified)	inactive: -94.5%
CC(=O)Nc1ccc(Oc2c([N+](=O)[O-])cc([N+](=O)[O-])cc2[N+](=O)[O-])cc1	inactive: 7.43%
CC(=O)Nc1ccc([As](=O)(O)O)c(O)c1	inactive: 7.03%
COc1ccc2c(c1O)-c1c(O)c(OC)cc3c1[C@H](C2)[N+](C)(C)CC3.O=[N+]([O-])c1cc([N+](=O)[O-])c([O-])c([N+](=O)[O-])c1[O-]	inactive: 13.6%
C[C@H]1OP(=O)(Oc2ccccc2)C[C@@H]2O[C@@H]21 (stereo partly specified)	inactive: -2.38%
C[C@@H]1C=CCP(=O)(Oc2ccccc2)O1 (stereo partly specified)	inactive: 26.1%
O=C(OCCN1CCN(CCOCc2ccccc2)CC1)C(O)(c1ccccc1)c1ccccc1	inactive: 14.1%
Cc1ccccc1CN(C)C(=O)COC(=O)C(O)(c1ccccc1)c1ccccc1	inactive: 9.19%
COC(=O)C1(C)COP(=O)(NCc2ccccc2)OC1 (stereo unspecified)	inactive: -1.9%
O=C(OC1CN2CCC1CC2)c1ccc([N+](=O)[O-])cc1 (stereo unspecified)	inactive: 6.35%
CC(=O)c1ccc(N2CC2c2ccncc2)cc1 (stereo unspecified)	inactive: 0.999%
N#C/C(=C\c1ccc(N(CCBr)CCBr)cc1)C(N)=O	inactive: 16%

SMILES	inhibition
COc1ccc(OP(C)(=O)Nc2ccc(SC(F)(F)F)cc2)cc1 (stereo unspecified)	inactive: 18.6%
CCOC(=O)c1ccc(NP(C)(=O)Oc2ccc(F)cc2)cc1 (stereo unspecified)	inactive: 29%
O=P1(N(CCCl)CCCl)OCCC2CCCCN21 (stereo unspecified)	inactive: -4.07%
Cc1ccc(NP(=O)(Oc2cccc(C)c2)Oc2cccc(C)c2)nc1	inactive: -42.1%
CCN(CC)CCCNc1ccccc1[N+](=O)[O-].O=[N+]([O-])c1cc([N+](=O)[O-])c(O)c([N+](=O)[O-])c1	inactive: -3.14%
c1ccc(-c2nn[nH]n2)c(-c2nn[nH]n2)c1	inactive: -1.99%
O=C(NC1CCS(=O)(=O)C1)NP(=S)(Oc1ccccc1)Oc1ccccc1 (stereo unspecified)	inactive: 13.1%
CCNC(=S)/N=C(\N)N[N+](=O)[O-]	inactive: 12.8%
O=[N+]([O-])c1cc([N+](=O)[O-])c(OC2CCCCC2O)c([N+](=O)[O-])c1 (stereo unspecified)	inactive: -55.3%
CCCCCOc1ccc(NP(C)(=O)Oc2ccc(Cl)cc2Cl)cc1 (stereo unspecified)	inactive: 14.8%
O=c1c2cc([N+](=O)[O-])ccc2[nH]c2c([N+](=O)[O-])cc([N+](=O)[O-])cc12	inactive: 20.3%
CN(C)C(=O)Oc1noc2ccccc12	inactive: 8.77%
CC(NC(=O)COC(=O)C(O)(c1ccccc1)c1ccccc1)c1ccccc1 (stereo unspecified)	inactive: 7.19%
Cc1ccccc1OP(=O)(Nc1ccccn1)Oc1ccccc1C	inactive: 20%
CP(=O)(Nc1ccccc1)Oc1ccc(F)cc1 (stereo unspecified)	inactive: -28%
CCN(CC)CCCOC(=O)C(O)(c1ccccc1)C1CCCCC1 (stereo unspecified)	inactive: 20.7%
O=C(OC1CN2CCC1CC2)c1ccccc1 (stereo unspecified)	inactive: 7.33%
CC(=O)NC(SC(=S)N(CC(C)C)CC(C)C)C(Cl)(Cl)Cl (stereo unspecified)	inactive: -4.48%
Cc1ccc(OP(=O)(Nc2ccccn2)Oc2ccc(C)cc2)cc1	inactive: 2.2%
Cc1c([N+](=O)[O-])cc([N+](=O)[O-])c(Br)c1[N+](=O)[O-]	inactive: -9.07%
COc1ccc(NP(C)(=O)Oc2ccccc2OC)cc1 (stereo unspecified)	inactive: -8.69%
C[C@H]1OP(=O)(Oc2ccccc2)[C@H](O)[C@H](O)[C@H]1N=[N+]=[N-] (stereo partly specified)	inactive: 0.014%
O=P(Nc1nc2ccccc2s1)(c1ccccc1)c1ccccc1	inactive: -0.252%
CN(C)C1(CNC(=O)c2ccc(Cl)c(S(N)(=O)=O)c2)CCCCC1	inactive: 12.8%
